Laboratory results as given in patent publication US20140273039A1 (ALBERT LUDWIGS UNIVERSIT T FREIBURG, published 2014).

Biological target: HA-2SL (protein consisting of HaloTag, two sequences of SNAP25 […] and luciferase) (human; firefly)
Experiment: cell-based or functional assay

B1: recombinant BoNT type A light chain (enzyme)
chain: not shown
How did the “EC50, luciferase release from HaloLink Magnetic Beads, 20 minutes incubation” value turn out when B1 was run?
The value was about 1 nM.
